This note sets out measurements from publication PMC8220418, “A fragment-based approach to assess the ligandability of ArgB, ArgC, ArgD and ArgF in the L-arginine biosynthetic pathway of Mycobacterium tuberculosis” (Computational and Structural Biotechnology Journal, 2021).

In the test the target is ArgB (Mycobacterium tuberculosis, UniProt P9WQ01). The test can be described thus: Isothermal titration calorimetry with ArgB. Format: binding. The settings on record: read-out: ITC Kd; 25 °C, single-site model. Background: ITC needs no label: the signal is the heat of the interaction.

In general, Kd refers to the concentration at which binding is half-saturated.

Regarding `CC(=O)N[C@@H](CCC(=O)O)C(=O)O` [NAG, N-acetyl-L-glutamic acid], the Kd is 56 µM.
